As usually defined, the Ki is a dissociation constant, usually derived from enzyme kinetics or from competition with a known ligand.

Sequences of proteins named here, by UniProt entry; tags and fusion partners are left off.
UniProt Q8DP63, whole entry, looked up: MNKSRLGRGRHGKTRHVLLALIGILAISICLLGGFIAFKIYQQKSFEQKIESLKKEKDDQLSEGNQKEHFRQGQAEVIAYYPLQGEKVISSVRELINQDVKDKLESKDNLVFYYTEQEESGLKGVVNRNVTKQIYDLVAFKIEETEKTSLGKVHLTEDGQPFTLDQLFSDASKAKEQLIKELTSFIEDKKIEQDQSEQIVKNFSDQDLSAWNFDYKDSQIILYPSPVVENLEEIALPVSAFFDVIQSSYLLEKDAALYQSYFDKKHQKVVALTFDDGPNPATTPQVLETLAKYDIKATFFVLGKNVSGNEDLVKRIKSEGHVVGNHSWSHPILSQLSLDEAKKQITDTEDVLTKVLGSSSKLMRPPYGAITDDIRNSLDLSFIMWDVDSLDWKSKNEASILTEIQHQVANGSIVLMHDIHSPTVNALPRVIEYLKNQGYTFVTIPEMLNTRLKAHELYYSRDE

For the experiment, the target named is Peptidoglycan-N-acetylglucosamine deacetylase (Streptococcus pneumoniae (strain ATCC BAA-255 / R6), UniProt Q8DP63). The following applies: pH 7.
As for `CO[C@@H]1OC(CO)[C@@H](OCc2ccccc2)C(O)[C@@H]1NP(C)(=O)O` (stereo not given in full), the affinity corresponds to a Ki of 170 µM.

`CP(=O)(O)N[C@H]1C(O)[C@H](O)C(COCc2ccccc2)O[C@H]1OCc1ccccc1` (stereo not given in full) showed a Ki of 220 µM.

`COC1[C@H](OCc2ccccc2)C(CO)O[C@@H](OC)[C@H]1NP(C)(=O)O` (stereo not given in full) showed a Ki of 720 µM.

`CP(=O)(O)N[C@H]1C(O)[C@H](OCc2ccccc2)C(CO)O[C@H]1OCc1ccccc1` (stereo not given in full): the Ki was found to be 80 µM.

Regarding `CO[C@@H]1OC(COCc2ccccc2)[C@@H](O)C(O)[C@@H]1NP(C)(=O)O` (stereo not given in full), the affinity, expressed as Ki, was 580 µM.

Source of the values: BindingDB's records for 25864869.
